From patent US8937167B2 (Washington University, priority 2009, dated 2015)

Protein sequences, listed by entry. Tags and fused reporters are not part of them. Residues count along the entry.
UniProt Q1R2J4, 20-300 limits assumed: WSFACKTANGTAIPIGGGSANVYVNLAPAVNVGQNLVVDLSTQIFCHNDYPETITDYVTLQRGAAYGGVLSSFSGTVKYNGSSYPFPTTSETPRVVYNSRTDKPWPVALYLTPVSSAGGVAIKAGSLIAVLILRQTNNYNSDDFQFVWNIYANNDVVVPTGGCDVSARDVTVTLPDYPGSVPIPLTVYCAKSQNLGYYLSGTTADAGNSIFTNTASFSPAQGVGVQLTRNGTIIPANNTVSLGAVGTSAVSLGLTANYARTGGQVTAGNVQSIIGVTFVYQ
UniProt P08191, 22-179 limits assumed: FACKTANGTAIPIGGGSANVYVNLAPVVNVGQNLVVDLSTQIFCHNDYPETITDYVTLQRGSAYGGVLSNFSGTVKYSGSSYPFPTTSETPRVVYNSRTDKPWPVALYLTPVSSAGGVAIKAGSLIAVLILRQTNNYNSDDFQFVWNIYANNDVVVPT

Tests used:
[1] = target: FimH (Escherichia coli, UniProt Q1R2J4); conditions: Table 20; Examples 30-36 numbering;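 also: hemagglutination inhibition of guinea pig erythrocytes agglutinated by type 1 piliated uropathogenic E. coli via FimH mannose binding, quantified through serial dilutions of compound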
[2] = target: FimH lectin domain (residues 1-158 of UPEC J96 FimH) (Escherichia coli, UniProt P08191); conditions: Table 20; compound at 100 μM

Structure (SMILES)	HAI Titer EC>90 [1]	DSF Melting Temp. [2]
NC(=O)c1cccc(-c2ccc(O[C@H]3O[C@H](CO)[C@@H](O)[C@H](O)[C@@H]3O)cc2)c1	2.000 µM	71.69 °C
CS(=O)(=O)Nc1cccc(-c2ccc(O[C@H]3O[C@H](CO)[C@@H](O)[C@H](O)[C@@H]3O)cc2)c1	2.000 µM	70.90 °C
COC(=O)c1cc(O[C@H]2O[C@H](CO)[C@@H](O)[C@H](O)[C@@H]2O)cc(C(=O)OC)c1	2.000 µM	73.25 °C

The match of structure and compound is tentative.
